Test results reported in patent US6841566B2, “Viral polymerase inhibitors” (Boehringer Ingelheim, Ltd., priority 2001, dated 2005).

Amino acid sequences for entries named in this document (tags omitted). Chains listed by the source or under a name are the forms on record and can include a tag or linker. Residues count along the entry.
UniProt P26663, 2420-3010 with tags or gaps with the stated changes: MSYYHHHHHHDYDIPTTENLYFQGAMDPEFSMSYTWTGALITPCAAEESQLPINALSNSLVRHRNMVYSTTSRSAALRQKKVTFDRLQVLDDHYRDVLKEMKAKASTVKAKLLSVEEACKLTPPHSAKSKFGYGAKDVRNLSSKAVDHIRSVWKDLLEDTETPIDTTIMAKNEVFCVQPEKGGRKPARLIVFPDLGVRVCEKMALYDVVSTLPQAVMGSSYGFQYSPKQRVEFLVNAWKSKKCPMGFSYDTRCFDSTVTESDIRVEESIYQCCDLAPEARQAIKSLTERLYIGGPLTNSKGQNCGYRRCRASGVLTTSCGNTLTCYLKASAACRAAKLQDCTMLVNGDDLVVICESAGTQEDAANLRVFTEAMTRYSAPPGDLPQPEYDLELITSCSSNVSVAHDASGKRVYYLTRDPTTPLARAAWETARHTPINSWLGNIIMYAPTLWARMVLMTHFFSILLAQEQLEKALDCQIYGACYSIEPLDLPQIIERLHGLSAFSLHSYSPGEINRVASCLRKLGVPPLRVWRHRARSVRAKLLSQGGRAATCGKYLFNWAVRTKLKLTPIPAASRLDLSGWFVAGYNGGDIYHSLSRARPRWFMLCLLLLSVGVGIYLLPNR

What was measured:
[1] = molecular target: hepatitis C virus RNA dependant polymerase (NS5B) (Hepatitis C virus genotype 1b, UniProt P26663); conditions: HCV NS5B polymerase assay of Example 22
[2] = test system: Huh7 cells that stably maintain a subgenomic HCV replicon (S22.3 cell-line); assay: Cell based HCV RNA replication assay (S22.3 replicon cells, real-time RT-PCR); conditions: 72 hours
Method: Huh7 cells that stably maintain a subgenomic HCV replicon were established as previously described (Lohman et al., 1999. Science 285: 110-113) and designated as the S22.3 cell-line. S22.3 cells were maintained in Dulbecco's Modified […] Medium (DMEM) supplemented with 10% FBS and 0.5 mg/mL neomycin (Standard Medium). During the assay, DMEM medium supplemented with 10% FBS, containing 0.5% DMSO and lacking neomycin was used (Assay Medium). 16 hours prior to compound addition, S22.3 cells are trypsinized and diluted to 100 000 cells/ml in Standard Medium. 100μL (10 000 cells) are distributed into each well of a 96-well plate. The plate was then incubated at 37° C. with 5% CO2 until the next day.
10 μL of test compound (in 100% DMSO) was added to 2 ml of Assay Medium for a final DMSO concentration of 0.5% and the solution was sonicated for 15 min and filtered through a […] Millipore Filter Unit. 900 μl was transferred into row A of a Polypropylene Deep-Well Titer Plate. Rows B to H, contain 400 μL aliquots of Assay Medium (containing 0.5% DMSO), and were used to prepare serial dilutions (1/2) by transferring 400 μl from row to row (no compound was included in row H).
Cell culture medium was aspirated from the 96-well plate containing the S22.3 cells. […]
RNA was quantified on the STORM® system (Molecular Dynamics®) using the RiboGreen® RNA Quantification Kit (Molecular Probes®). […]

Q: What does the source list for C=CC1CC1(NC(=O)c1ccc2c(c1)nc(-c1ccoc1)n2C1CCCCC1)C(=O)Nc1ccc(/C=C/C(=O)O)cc1 (single isomer, unassigned)?
A: IC50 [1]: < 500 nM; EC50 [2]: < 5000 nM
